Measured values taken from patent publication US10098937B2, “Peptides and combination of peptides for use in immunotherapy against various cancers” (immatics biotechnologies GmbH, priority 2015, dated 2018).

Columns and labels:
[1] = system: HLA-A*02-positive cancer and normal tissue samples; experiment: Identification and relative quantitation of HLA-A*02 tumor associated peptides presented on the cell surface (LC-MS, XPRESIDENT); set-up: species or system human; details: FIG. 1, HLA-A*02 peptides
[2] = system: HLA-A*24-positive cancer and normal tissue samples; experiment: Identification and relative quantitation of HLA-A*24 tumor associated peptides presented on the cell surface (LC-MS, XPRESIDENT); set-up: species or system human; details: FIG. 1, HLA-A*24 peptides; for number of cell lines where the peptide was found to be presented: benign prostate hyperplasias

| Substance | number of cancer tissues where the peptide was found to be presented [1] | number of cancer tissues where the peptide was found to be presented [2] | also measured |
| --- | --- | --- | --- |
| SEQ ID NO.: 92 (GLLFSLRSV; listed as Homo sapiens) | 14 | – | number of cell lines where the peptide was found to be presented [1]: 2; number of normal tissues where the peptide was found to be presented [1]: 1 |
| SEQ ID NO.: 158 (HYSQELSLLYL; listed as Homo sapiens) | – | 19 | – |
| SEQ ID NO.: 195 (TYSVSFPMF; listed as Homo sapiens) | – | 58 | number of normal tissues where the peptide was found to be presented [2]: 1; number of cell lines where the peptide was found to be presented [2]: 3 |
| SEQ ID NO: 8 (SIYQFLIAV; listed as Homo sapiens) | 14 | – | number of cell lines where the peptide was found to be presented [1]: 2 |
| SEQ ID NO: 13 (ALMAMLVYV; listed as Homo sapiens) | 17 | – | – |
| SEQ ID NO: 32 (VQLDSIEDLEV; listed as Homo sapiens) | 10 | – | – |
| SEQ ID NO: 39 (HLLEGSVGV; listed as Homo sapiens) | 7 | – | – |
| SEQ ID NO: 160 (VYTLDIPVL; listed as Homo sapiens) | – | 17 | – |
| SEQ ID NO: 164 (KFSSFSLFF; listed as Homo sapiens) | – | 14 | number of cell lines where the peptide was found to be presented [2]: 2 |
| SEQ ID NO: 203 (FYSRLLQKF; listed as Homo sapiens) | – | 15 | number of cell lines where the peptide was found to be presented [2]: 1 |
| SEQ ID NO: 237 (ALAPHLDDA; listed as Homo sapiens) | 10 | – | number of cell lines where the peptide was found to be presented [1]: 1 |
| SEQ ID NO: 259 (ILLPRIIEA; listed as Homo sapiens) | 27 | – | number of cell lines where the peptide was found to be presented [1]: 1 |
| SEQ ID NO: 270 (NYYEVHKELF; listed as Homo sapiens) | – | 14 | – |
| SEQ ID NO: 277 (VYQGHTALL; listed as Homo sapiens) | – | 64 | number of normal tissues where the peptide was found to be presented [2]: 4; number of cell lines where the peptide was found to be presented [2]: 2 |
| SEQ ID NO: 278 (RYISDQLFTNF; listed as Homo sapiens) | – | 31 | number of normal tissues where the peptide was found to be presented [2]: 1 |
| SEQ ID NO: 287 (LYITEPKTI; listed as Homo sapiens) | – | 12 | – |
| SEQ ID NO: 288 (VYVSDIQEL; listed as Homo sapiens) | – | 21 | number of normal tissues where the peptide was found to be presented [2]: 2 |
| SEQ ID NO: 305 (KLFTSVFGV; listed as Homo sapiens) | 5 | – | – |
